Results: ChEMBL document CHEMBL1671674, “Induction of multidrug resistance mechanism in Escherichia coli biofilms by interplay between tetracycline and ampicillin resistance genes” (2009)

System: Escherichia coli
Settings: K-12 substr. MG1655

Sequence: GENTAMICIN
- MIC: 0.5 µg/mL
